Results of unrelated studies side by side (data: NIAID ChemDB).

All rows: whole-cell or culture tests; organism: Herpes simplex virus 2

Blank or dashed fields: not listed here.

| structure | cell line | strain | read-out | read by | value |
|---|---|---|---|---|---|
| CCCc1cn([C@H]2C[C@H](O)[C@@H](CO)O2)c(=O)[nH]c1=O | E6SM | G 196 LYONS | EC50 | cytopathic effect | 770 µM |
| CSc1ncnc2c1cnn2Cc1cn(CCCCO)nn1 | E6SM | G | EC50 | - | >400 µg/mL |
| CC(=O)OCCOCN1C=CC(=O)NS1(=O)=O | E6SM | G | EC50 | - | >400 µg/mL |
| Cc1cn([C@@H]2O[C@H](COP(=O)(O)O)[C@@H](O)[C@@H]2O)c(=O)[nH]c1=O | HELF | MS | EC50 | cytopathic effect | 1 µg/mL |
| CC=NC(=N)c1nc(-c2ccc(C)cc2)n(COCCO)n1 | E6SM | G | EC50 | cytopathic effect | >40 µg/mL |
| CCCCCCCCCCCCCCCCCCOC[C@H](COP(=O)(O)CO[C@H](CO)Cn1ccc(N)nc1=O)OCc1ccccc1 | HFF | G | EC50 | plaque count | 0.07 µM |
| OCCCCn1nncc1Cn1ncc2c(SCc3ccccc3)ncnc21 | E6SM | G | EC50 | - | >400 µg/mL |
| CCCCCCCCCCCCOCCCOP1(=O)CO[C@@H](Cn2ccc(N)nc2=O)CO1 | HFF | MS | EC50 | plaque count | >1 µM |
| O=c1c2ncn(COCCO)c2nc2[nH]c(-c3ccccc3)c(Cc3ccc(F)cc3)n12 | HEL | G | EC50 | cytopathic effect | >16 µg/mL |
| CCOC(=O)C1=CN(COCCOC(C)=O)S(=O)(=O)N=C1N | E6SM | G | EC50 | - | >400 µg/mL |
| Nc1nc2c(ncn2[C@@H]2C[C@H](CO)[C@H]2CO)c(=O)[nH]1 | WI-38 | 186/2'NDG^R | EC50 | plaque count | 1–2 µM |
| Cc1cn([C@@H]2O[C@H](CO)[C@@H](O)[C@@H]2F)c(=O)[nH]c1=O | HELF | MS | EC50 | plaque count | 0.011 µg/mL |
| O=C(NCc1ccc(Cl)cc1)c1cn2c3c(cc(CN4CCOCC4)cc3c1=O)OC(c1cccnc1)C2 | HFF | 12247 (ACV-resistant) | EC50 | plaque count | 8 µM |
| CCCCCCCCCCCCCCCCCCOCCCOP1(=O)CO[C@@H](Cn2ccc(N)nc2=O)CO1 | HFF | SR | EC50 | plaque count | >1 µM |
| CCc1cn([C@H]2C[C@H](O)[C@@H](COP(=O)(O)O)O2)c(=O)[nH]c1=O | PRK | G | EC50 | cytopathic effect | 0.4 µg/mL |
| [N-]=[N+]=N[C@H]1C[C@@H](CO)S[C@H]1n1cnc2c(N)ncnc21 | - | - | EC50 | - | >100 µg/mL |
| Nc1ncnc2c1ncn2[C@@H]1OCC(CO)=C1F | - | - | EC50 | - | >100 µg/mL |
| O=c1c2ncn(COCCO)c2nc2[nH]c(-c3ccc(F)cc3)cn12 | HEL | G | EC50 | cytopathic effect | >16 µg/mL |
| Nc1ccn(C[C@@H](CO)OCP(=O)(O)O)c(=O)n1 | HFF | Jensen | EC50 | plaque count | 2.1 µg/mL |
| O=C1CSc2nnc(-c3cn(-c4ccccc4)nc3-c3ccccc3)n2N1 | HEL | G | EC50 | cytopathic effect | >16 µg/mL |
| CC=NC(=N)c1nc(-c2cccc(OC)c2)n(COCCO)n1 | E6SM | G | EC50 | cytopathic effect | 300 µg/mL |
| Nc1ncnc2c1ncn2C[C@@H](CO)OCP(=O)(O)O | PRK | G | EC50 | cytopathic effect | 1–3 µg/mL |
| CC1=Nn2c(nnc2-c2cn(-c3ccccc3)nc2-c2ccccc2)SC1 | HEL | G | EC50 | cytopathic effect | >16 µg/mL |
| O=c1[nH]c(=O)n([C@@H]2O[C@H](CO)[C@@H](O)[C@@H]2O)cc1/C=C/I | HELF | MS | EC50 | plaque count | 4.3 µg/mL |
| CC=NC(=N)c1nc(-c2cccc(OC)c2)n(C/C=C/c2ccccc2)n1 | E6SM | G | EC50 | cytopathic effect | >10 µg/mL |
| O=c1[nH]c(=O)n([C@H]2C[C@H](O)[C@@H](CO)O2)cc1/C=C/Br | PRK | 196 | EC50 | cytopathic effect | 70 µg/mL |
| C=C(N=CC)c1nc(-c2ccccc2)n([C@@H]2O[C@H](CO)[C@@H](O)[C@H]2O)n1 | E6SM | G | EC50 | cytopathic effect | 200 µg/mL |
| Nc1ccn(C[C@@H](CO)OCP(=O)(O)O)c(=O)n1 | HFF | MS | EC50 | plaque count | 5.1 µM |
| COc1cc(OC)c(NC(=S)Nc2ccc(NC=O)cc2Cl)cc1Cl | HFF | 12 | EC50 | ELISA | 11 µg/mL |
| O=c1c2ncn(COCCO)c2nc2[nH]c(-c3ccc(C(F)(F)F)cc3)cn12 | HEL | 196 | EC50 | cytopathic effect | >16 µg/mL |
| CC(=O)OCCOCN1C=CC(=O)N(COCCOC(C)=O)S1(=O)=O | E6SM | G | EC50 | - | >400 µg/mL |
| Nn1c(SCC(=O)O)nnc1-c1cn(-c2ccccc2)nc1-c1ccccc1 | HEL | G | EC50 | cytopathic effect | >80 µg/mL |
| CCOC(=O)C1=CN(COCCO)S(=O)(=O)NC1=O | E6SM | LYONS | EC50 | - | >400 µg/mL |
| COC(=O)C(C)(C)NP(=O)(OC[C@H]1O[C@@H](n2cc(/C=C/Br)c(=O)[nH]c2=O)C[C@@H]1O)Oc1ccccc1 | E6SM | G | EC50 | cytopathic effect | >240 µM |
| [N-]=[N+]=N[C@H]1C[C@H](CO)S[C@@H]1n1cnc2c(Cl)ncnc21 | - | - | EC50 | - | >100 µg/mL |
| CCOC(=O)C1=CSc2nnc(-c3cn(-c4ccccc4)nc3-c3ccccc3)n2N=C1N | HEL | G | EC50 | cytopathic effect | >16 µg/mL |
| OCCCCn1cc(Cn2ncc3c(SCc4ccccc4)ncnc32)nn1 | E6SM | G | EC50 | - | >400 µg/mL |
| O=c1[nH]c(=O)n([C@H]2C[C@H](O)[C@@H](CO)O2)cc1/C=C\Cl | PRK | G | EC50 | cytopathic effect | 20 µg/mL |
| CCCc1cn([C@H]2C[C@H](O)[C@@H](COP(=O)(O)O)O2)c(=O)[nH]c1=O | PRK | LYONS | EC50 | cytopathic effect | 6 µg/mL |
| Nc1ncnc2c1ncn2[C@@H]1O[C@H](CO)[C@@H](O)[C@@H]1O | MEF | MS | EC50 | plaque count | 57 µM |
| Cn1cc(C(=O)NCc2ccc(Cl)cc2)c(=O)c2cc(CN3CCOCC3)ccc21 | HFF | L6191456 ACV resistant | EC50 | plaque count | 5.5 µM |
| O=C1C=CN(COCCO)S(=O)(=O)N1COCCO | E6SM | G | EC50 | - | >400 µg/mL |
| O=c1[nH]c(=O)n([C@H]2C[C@H](O)[C@@H](CO)O2)cc1I | HELF | MS | EC50 | plaque count | 1.95 µg/mL |
| COc1nc(=O)n([C@H]2C[C@H](O)[C@@H](CO)O2)cc1/C=C/Cl | PRK | G | EC50 | cytopathic effect | 20 µg/mL |
| Nc1nc2c(ccn2[C@@H]2C[C@H](CO)[C@H](O)[C@@H]2O)c(=O)[nH]1 | - | - | MIC | - | 25 µg/mL |
| CC=NC(=N)c1nc(-c2ccccc2)n(C/C=C/c2ccccc2)n1 | E6SM | G | EC50 | cytopathic effect | >4 µg/mL |
| CC(=O)OCCOCN1C(N)=CC(N)=NS1(=O)=O | E6SM | G | EC50 | - | >400 µg/mL |
| O=c1[nH]c(=O)n([C@@H]2O[C@H](COP(=O)(O)O)[C@@H](O)[C@@H]2O)cc1/C=C/Br | HELF | UW-268 | EC50 | plaque count | 15.1 µg/mL |
| CC(=O)OC[C@H]1[C@H](COC(C)=O)[C@@H](CO)O[C@H]1n1cnc2c(N)ncnc21 | MEF | E-196 | EC50 | plaque count | 201 µM |
| O=c1c2ncn(COC(CO)CO)c2nc2[nH]c(-c3ccc(F)cc3)cn12 | HEL | LYONS | EC50 | cytopathic effect | 1.92 µg/mL |
| [N-]=[N+]=N[C@H]1C[C@@H](CO)S[C@@H]1n1ccc(N)nc1=O | - | - | EC50 | - | >100 µg/mL |
| Nc1nc2c(ncn2COCCO)c(=O)[nH]1 | HFF | V72833 (acyclovir-susceptible) | EC50 | cytopathic effect | 0.5 µg/mL |
| CC(C)(C)c1cn([C@H]2C[C@H](O)[C@@H](CO)O2)c(=O)[nH]c1=O | E6SM | G 196 LYONS | EC50 | cytopathic effect | >1500 µM |
| CCCCCCCC/C=C\CCCCCCCOCCCOP1(=O)CO[C@@H](Cn2ccc(N)nc2=O)CO1 | HFF | MS | EC50 | plaque count | 0.07 µM |
| COC(=O)[C@H](C)NP(=O)(OC[C@H]1O[C@@H](n2cc(/C=C/Br)c(=O)[nH]c2=O)C[C@@H]1O)Oc1ccc(Cl)cc1 | E6SM | G | EC50 | cytopathic effect | >16 µM |
| CC(C)(C)c1cn([C@H]2C[C@H](O)[C@@H](CO)S2)c(=O)[nH]c1=O | E6SM | G 196 LYONS | EC50 | cytopathic effect | 497 µM |
| C[C@@H](c1ccccc1)N(CC(=O)Nc1ccc(-c2csc(N)n2)cc1)C(=O)c1ccncc1 | BHK-21/C13 | HG-52 | EC50 | plaque count | 0.11 µM |
| CCOC(=O)c1ccc(OCCC2CCN(c3ccc(C)nn3)CC2)cc1 | KB | HGP | EC50 | neutral red | 0.0008 µM |
| CCOC(=O)Sc1nnc(-c2cn(-c3ccccc3)nc2-c2ccccc2)n1N | HEL | G | EC50 | cytopathic effect | >16 µg/mL |
| [N-]=[N+]=N[C@H]1C[C@H](CO)S[C@H]1n1cnc2c(Cl)ncnc21 | - | - | EC50 | - | >100 µg/mL |
| CC(=O)OCCOCN1C=C(C#N)C(N)=NS1(=O)=O | E6SM | G | EC50 | - | >400 µg/mL |
| CC=NC(=N)c1nc(-c2ccccc2)n(COCCO)n1 | E6SM | G | EC50 | cytopathic effect | >40 µg/mL |
| Nc1nc2c(ncn2CCC(CO)CO)c(=O)[nH]1 | MRC-5 | 6 isolates | EC50 | plaque count | 1.5 µg/mL |

Two numbers with a dash give a range or band. ECn: concentration that inhibits the pathogen or its effect by n%. Neighbouring rows are from separate reports.